The entries are a selection whose mix differs from that of the whole data set. Inconclusive results are not listed. The source made the active and inactive calls. Calls come from the whole dose curve; tested in HEK293 cells.
% is set by controls: 0 for no effect and ±100 for the full control effect.

The assay can be described thus: qHTS for Inhibitors of binding or entry into cells for Lassa Virus. Note: nearly all actives have a fitted effect of over 50% in size. The settings on record: Lassa virus pseudotype entry inhibition, cell reporter; at 37.9 µM (top of the series) unless noted. In general terms: Quantitative high-throughput screening tests each substance at several concentrations.
In the case of `Nc1ccc([As](=O)(O)c2ccc([N+](=O)[O-])cc2)cc1`, the activity change, negative = inhibition was inactive: 13.3%.
With `C(Cc1nn[nH]n1)Cc1nn[nH]n1`, the activity change, negative = inhibition was inactive: 11.3%.
On to `O=C(OC1CN2CCC1CC2)c1cccc(Cl)c1` (centres undefined), for which the activity change, negative = inhibition is inactive: -14.3%.
Take `O=[N+]([O-])c1ccc(OP2(=O)COCCO2)cc1` (centres undefined): the activity change, negative = inhibition is inactive: 19.8% [at 46.1 µM].
Take `CC(=O)NC(SC(=S)N(C)C)C(Cl)(Cl)Cl` (centres undefined): the activity change, negative = inhibition is inactive: -13.7%.
With `O=[As](O)(c1ccccc1)c1ccc(O)cc1` the figure was inactive: 20.9%; with `O=P(Nc1nc2ccccc2s1)(c1ccccc1)c1ccccc1`, inactive: -2.03%.
Consider `CN(C)CCOC(=O)C(O)(c1ccccc1)C1CCCCC1` (centres undefined), for which the activity change, negative = inhibition was inactive: 16.8%.
Take `COc1ccc(N)c([N+](=O)[O-])c1[N+](=O)[O-]`: the activity change, negative = inhibition was inactive: 1.83% [at 46.1 µM].
Take `CN(C)C1(CNC(=O)c2ccc(Cl)c(S(N)(=O)=O)c2)CCCCC1`: the activity change, negative = inhibition was inactive: -3.33%.
For the compound `O=P(Nc1ccccn1)(c1ccc(Br)cc1)c1ccc(Br)cc1`, the activity change, negative = inhibition is inactive: 1.21% [at 46.1 µM].
For the compound `O=P(Nc1nccs1)(c1ccccc1)c1ccccc1`, the activity change, negative = inhibition was inactive: 3.67%.
As for `CC(=O)Nc1ccc([As](=O)(O)O)c(O)c1`, the activity change, negative = inhibition is inactive: 6.36%.
On to `COC(=O)C1(C)COP(=O)(NCc2ccccc2)OC1` (centres undefined), for which the activity change, negative = inhibition was inactive: -9.14%.
As for `CC(=O)c1ccc(N2CC2c2ccncc2)cc1` (centres undefined), the activity change, negative = inhibition is inactive: 7.71% [at 46.1 µM].
Take `Cc1ccccc1CN(C)C(=O)COC(=O)C(O)(c1ccccc1)c1ccccc1`: the activity change, negative = inhibition is inactive: 10.2%.
With `CCc1cc(O)c([N+](=O)[O-])c(C)c1[N+](=O)[O-]`, the activity change, negative = inhibition is inactive: -8.09%.
With `CC(C)(C)C(=O)NC(Sc1ccccc1)C(Cl)(Cl)Cl` (centres undefined), the activity change, negative = inhibition is inactive: 2.6%.
As to `O=P1(Nc2nc3ccc(Cl)cc3s2)COc2ccccc2O1` (centres undefined), the activity change, negative = inhibition is inactive: 2.23%.
The value for `CN(C)C(=O)Oc1noc2ccccc12` was inactive: -0.376%; that for `Cc1ccccc1OP(=O)(Nc1ccccn1)Oc1ccccc1C` was inactive: -17.9%.
Regarding `CC(=O)NC(SC(=S)N(CC(C)C)CC(C)C)C(Cl)(Cl)Cl` (centres undefined), the activity change, negative = inhibition is inactive: -1.83%.
Consider `Cc1ccc(OP(=O)(Nc2ccccn2)Oc2ccc(C)cc2)cc1`, for which the activity change, negative = inhibition is inactive: -28%.
In the case of `COC(=O)c1cc2c(s1)N=C(c1ccccc1)N(C)P2(=O)N1CCOCC1` (centres undefined), the activity change, negative = inhibition is inactive: 3.79%.
`CCC(=O)N1C2C3N(C(=O)CC)C1C1N(C(=O)CC)C(C(N1C(=O)CC)N3C(=O)CC)N2C(=O)CC`: the activity change, negative = inhibition is inactive: -7.44%.
Turning to `CCN(CC)CCCOC(=O)C(O)(c1ccccc1)C1CCCCC1` (centres undefined), the activity change, negative = inhibition is inactive: -10.4%.
On to `O=P1(N(CCCl)CCCl)OCCC2CCCCN21` (centres undefined), for which the activity change, negative = inhibition was inactive: 1.87% [at 46.1 µM].
On to `O=C(NC1CCS(=O)(=O)C1)NP(=S)(Oc1ccccc1)Oc1ccccc1` (centres undefined), for which the activity change, negative = inhibition is inactive: -16.3%.
On to `CCNC(=S)/N=C(\N)N[N+](=O)[O-]`, for which the activity change, negative = inhibition was inactive: 4.25% [at 46.1 µM].
For `Cc1ccc(NP(=O)(Oc2cccc(C)c2)Oc2cccc(C)c2)nc1`, the activity change, negative = inhibition is inactive: 4.99%.
As for `c1ccc(-c2nn[nH]n2)c(-c2nn[nH]n2)c1`, the activity change, negative = inhibition is inactive: 18.8%.
Consider `CCN(N=Nc1nonc1N)c1nonc1N`, for which the activity change, negative = inhibition was inactive: 1.39%.
Regarding `Cc1ccc(NP(=O)(Oc2ccccc2F)Oc2ccccc2F)nc1`, the activity change, negative = inhibition is inactive: -7.44%.
With `CCOP(=O)(Nc1ccccc1)OCC`, the activity change, negative = inhibition was inactive: 9.6%.
With `Cc1cc(SC(NC(=O)c2ccc(F)cc2)C(Cl)(Cl)Cl)ncn1` (centres undefined) the figure was inactive: 17.2%; with `CCCC1OP(N)(=O)OCC1CC` (centres undefined), inactive: -18.8% [at 46.1 µM].
On to `O=C(O)c1ccccc1[As](=O)(O)O`, for which the activity change, negative = inhibition was inactive: -10.8% [at 46.1 µM].
For the compound `CC(=O)Nc1ccc([As](=O)(O)O)cc1`, the activity change, negative = inhibition is inactive: 1.89%.
`O=P(Nc1nc2ccc(Cl)cc2s1)(c1ccccc1)c1ccccc1`: the activity change, negative = inhibition is inactive: 11.2%.
On to `CC(C)CC(=O)NC(Sc1ccc(Cl)cc1)C(Cl)(Cl)Cl` (centres undefined), for which the activity change, negative = inhibition is inactive: 2.86%.
For `O=C(NC(Sc1ccncn1)C(Cl)(Cl)Cl)c1ccccc1` (centres undefined), the activity change, negative = inhibition was inactive: -2.04%.
Regarding `Oc1ccccc1CNc1ccccn1`, the activity change, negative = inhibition was inactive: 16.5%.
On to `Cc1ccc(OP(=O)(Nc2nccs2)Oc2ccc(C)cc2)cc1`, for which the activity change, negative = inhibition was inactive: 3.94%.
Consider `COc1ccccc1OP(=O)(Nc1ccc(C)cn1)Oc1ccccc1OC`, for which the activity change, negative = inhibition is inactive: 6.63%.
For `CN(C)CCOC(=O)C(O)(c1ccccc1)C1CCCC1` (centres undefined), the activity change, negative = inhibition was inactive: 17.1%.
Take `Clc1ccc(Cl)c(NC2=NCC(CBr)S2)c1` (centres undefined): the activity change, negative = inhibition is inactive: -1.33%.
With `CN1CCCC(OC(=O)C(c2ccccc2)c2ccccc2)C1` (centres undefined), the activity change, negative = inhibition is inactive: 4.78%.
`Cc1ccc(N/C(=N/P(=O)(N2CCOCC2)N2CCOCC2)N2CCOCC2)cc1`: the activity change, negative = inhibition is inactive: 2.09%.
With `CN(C)C(=O)OCCc1n(C)cc[n+]1C` the figure was inactive: -4.51%; with `CC(C)=N/N=C(\N)N[N+](=O)[O-]`, inactive: 19.2%.
The value for `CC1CCN(C(=O)Oc2c(Cl)cc(Cl)c3cccnc23)CC1` was inactive: 2.81%; that for `Nc1ccc([As](=O)(O)c2ccc(N)cc2)cc1` was inactive: 17.6%.
The value for `CCN(/C(=N/P(=O)(N1CCOCC1)N1CCOCC1)N1CCOCC1)c1ccc(OC)cc1` was inactive: -1%; that for `CC(=O)N1C2C3N(C(C)=O)C1C1N(C(C)=O)C(C(N1C(C)=O)N3C(C)=O)N2C(C)=O` was inactive: 3.63%.

The values are drawn from PubChem BioAssay AID540256 (National Center for Advancing Translational Sciences (NCATS), 2011).
